Experimental data as given in patent US8652533B2 (priority 2004, dated 2014).
Like-named read-outs stand apart in the source and are kept apart here.

Tested on: SARS (Toronto-2 Strain)
Assay type: cell-based, SARS coronavirus (SARSCoV)

With IFN-beta: Interferon-beta control the “cytoprotective effect (in words)” value (50 International Units (IU)) was “substantially no cytoprotective effect” and the “cytoprotective effect (in words)” value (concentration of 50 IU as printed (second mention)) was “at least some cytoprotective effect”.
